Data as given in PubChem BioAssay AID624099 (ICCB-Longwood, 2012).

Purpose: 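Host factors E2 relies on to silence an HPV18 LCR reporter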 (primary screen)
System: human C33A cervical carcinoma cells (HPV-negative) stably expressing BPV1 E2 and an HPV18 LCR luciferase reporter
Reagent: siRNA pool against human genes, 40 nM
Time to read-out: 72 h
Measurement: 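Per-well luciferase luminescence, z-scored on each plate against the plate mean and SD with control wells left out, then averaged across three replicate plates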
Direction: mean z-score and z-score: higher = stronger reporter signal, weaker E2 silencing
Call rule: 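Mean z ≥ 2 together with z ≥ 2 in two or more of the three replicates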
Shown is an unselected part of about 21,000 reagents tested. 497 of all reagents (2.4%) count as active. 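Higher z means weaker E2 silencing; only reporter increases were scored, and knock-downs that hurt cell survival may mask genuine repressor factors.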 Unmarked entries are inactive.

gene | mean z-score | z-score, replicate A | z-score, replicate B | z-score, replicate C
C1QTNF12 | 0.77 | 1.14 | 0.1 | 1.06
HAS3 | -0.48 | -0.59 | -0.5 | -0.35
FABP2 | 0.25 | 0.27 | 0.14 | 0.35
GAPDHS | 1.11 | 1.09 | 1.06 | 1.17
TRPC3 | 0.18 | 0.23 | 0.26 | 0.06
HOXB2 | 0.48 | 0.26 | 0.43 | 0.74
SLC26A11 | 1.27 | 1.37 | 0.92 | 1.52
CER1 | -0.27 | -0.27 | -0.43 | -0.1
DNAJB6P1 | 0.95 | 0.82 | 1.04 | 0.99
CD68 | 1.06 | 0.91 | 1.08 | 1.2
CFAP99 | -0.8 | -0.29 | -1.33 | -0.79

2 entries from above, reformatted:
HAS3 — mean z-score = -0.48; z-score, replicate A = -0.59; z-score, replicate B = -0.5; z-score, replicate C = -0.35
FABP2 — mean z-score = 0.25; z-score, replicate A = 0.27; z-score, replicate B = 0.14; z-score, replicate C = 0.35

Next records:
gene | mean z-score | z-score, replicate A | z-score, replicate B | z-score, replicate C
TEX47 | 0.39 | 0.55 | 0.32 | 0.29
FENDRR | 0.62 | 0.79 | 0.1 | 0.95
ZNF23 | 1.18 | 1.09 | 1.35 | 1.09
SRL | -0.08 | -0.44 | -0.02 | 0.23
GLI2 | -2.31 | -1.9 | -2.77 | -2.25
SLC5A6 | 1.15 | 0.9 | 1.13 | 1.44
RAMP2 | -0.35 | -0.25 | -0.48 | -0.31
NUDT10 | 0.96 | 0.81 | 0.99 | 1.07
NACC1 | 0.11 | 0.5 | 0.06 | -0.22
ZFP36 | 0.05 | -0.01 | 0.13 | 0.02
RPP25 | 0.64 | 1.26 | 0.55 | 0.1
ACCSL | 0.45 | 0.21 | 0.42 | 0.72
